Human monoclonal antibodies against the spike receptor-binding domain (heavy:light variable regions). IC50 against pseudoviruses bearing the spike of naturally observed variants; lower = stronger; >10 µg/ml means not reached at the top dose. No active / inactive call. The stated detection limit is 0.0005 µg/ml; values near or below 0.001 µg/ml lie at the floor of the assay.
B1: BD56-1413 (protein)
chain 1: QVHLVQSGAEVKKPGASVKVSCKASGDTFTNHYIHWVRQAPGQGLEWMGIINPSGGSTSYAQKFQGRVTMTRDTSTSTVYMELSSLRSEDTAVYYCARDSSFIPQKYYYGLDVWGLGTTVTVSS
chain 2: DIQMTQSPSSLSASVGDRVTITCRASQSISNYLNWYQQKPGKAPKLLIYAASSLQSGVPSRFSGGGSGTDFALTISTLQPEDFATYYCQQSYITPPTFGQGTKVEIK
B2: BD56-1420 (protein)
chain 1: QVQVVESGGGVVQPGRSLRLSCAASGFTFSSYGMHWVRQAPGKGLEWVAVISYDGNDKFYGDSVKGRFTISRDNSKNILYLQMNSLRGDDTAVYHCAKDGPWELRYFDWLPRPHYLDYWGQGTLVAVSS
chain 2: QSVLTQPPSVSAAPGQKVTISCSGSNSNIANNYVSWYQQLPGTAPQLLIYDDDKRPSGIPDRFSGSKSGTSATLGITGLQTGDEADYYCGAWDSSLSTWVFGGGTKLTVL
B3: BD56-1422 (protein)
chain 1: QVQLVESGGGVVQPGRSLRLSCAASGFTFTSYGMHWVRQAPGKGLEWVALISYDGSNKFYADSVRGRFTISRDNSKNTLYLQMDSLRADDTAVYYCAKDGPWEFRSFDWLGSPYYFHYWGQGALVTVSS
chain 2: QSVLTQPPSVSAAPGQKVSISCSGSNSNIGNNYVSWYQQLPTTAPKLLIYDNDKRPSGIPDRFSGSKSGTSVTLGITGLQTGDEADYYCGTWDSSLSTWVFGGGTKLTVL
B4: BD56-1423 (protein)
chain 1: EMQLVESGGGVVQPGGSLRLSCAASGFTFNYYAMHWVRQAPGKGLEWISLISGDGDSSYYADSVKGRFTISRDNSKNSLYLQMNSLRTEDTALYYCAKDCIAAPTYYIDVWGKGTTVTVSS
chain 2: DIQMTQSPSSLSASVGDRVTITCQASQDISNYLNWYQQKPGKAPKLLIYDASNLETGVPSRFSGSGSGTVFTFTISSLQPEDIATYYCQQYDHHPAITFGGGTKVEIK
B5: BD56-1428 (protein)
chain 1: QVQLVESGGGVVQPGRSLRLSCAASGFTFRNYGMHWVRQAPGKGLEWVAVIWNDGSNKYYGDSVKGRFTISRDNSKNTLYLQMNSLRAEDTAVYYCARDYGVGATMEDYFDYWGQGTLVTVSS
chain 2: QSVLTQPPSASGTPGQRVTISCSGSSSNIGINYVYWYYHLPGTAPKLLIYKNNQRPSGVPDRFSGSKSGTSASLAIGGLRSEDEADYYCAAWDDSLGGWVFGGGTKLTVL
B6: BD56-1429 (protein)
chain 1: EVQLLESGGGLVQPGGSLRLSCAASGFTFSSYAMNWVRQAPGKGLEWVSGISAYGSSTYHADSVKGRFTISRDNSKNTLYLQMNSLRAADTAVYYCAKDKYPGGPYYYMDVWGEGTTVTVSS
chain 2: DIQMTQSPSSLSASVGDRVTITCQASQDISNSLNWYRQKPGKAPKLLIYDASNLETGVPSRFSGSGSGTDFTFTISSLQPEDIATYYCQQYDNLPITFGHGTRLEIK
B7: BD56-1436 (protein)
chain 1: QVQLVESGGGVVQPGRSLRLSCAASGFTFSSYAMHWVRQAPGKGLEWVAVILDDGSGKFYADSVKGRFTISRDNSKNTLYLQMNSLRPEDTAIYYCARDSSSVQSLVSWFDPWGQGSLVTVSS
chain 2: DIQMTQSPSSLSASVGDRVTITCRASQSIGTYLNWYQQKPGKAPKLLIYVASSLQSGVPSRFSGSGSGTDFTLTISSLQPEDFATYYCQQSYSSPPWTFGQGTKLQIK

Target: SARS-CoV-2 Omicron BA.1 spike pseudovirus
Assay: pseudovirus neutralization IC50; higher = weaker neutralization
Protocol: (§1)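 Single-round VSV luciferase pseudovirus mixed with antibody dilutions for 1 h and put on Huh-7 cells for about a day; IC50 from the dose curve.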

| Binder | pseudovirus neutralization IC50 [µg/mL] |
| --- | --- |
| B1 | > 10 |
| B2 | 0.356 |
| B3 | 0.93 |
| B4 | > 10 |
| B5 | 0.537 |
| B6 | > 10 |
| B7 | > 10 |

Target: SARS-CoV-2 Omicron BA.2 spike pseudovirus
Assay: as above
Protocol: as §1

| Binder | pseudovirus neutralization IC50 [µg/mL] |
| --- | --- |
| B1 | > 10 |
| B2 | 0.00584 |
| B3 | 0.00266 |
| B4 | > 10 |
| B5 | 0.925 |
| B6 | > 10 |
| B7 | > 10 |

Target: SARS-CoV-2 Omicron BA.2.75 spike pseudovirus
Assay: as above
Protocol: as §1

| Binder | pseudovirus neutralization IC50 [µg/mL] |
| --- | --- |
| B1 | > 10 |
| B2 | 0.235 |
| B3 | 0.34 |
| B4 | > 10 |
| B5 | 0.495 |
| B6 | > 10 |
| B7 | > 10 |

Target: SARS-CoV-2 Omicron BA.5 spike pseudovirus
Assay: as above
Protocol: as §1

| Binder | pseudovirus neutralization IC50 [µg/mL] |
| --- | --- |
| B1 | > 10 |
| B2 | 0.371 |
| B3 | 0.113 |
| B4 | > 10 |
| B5 | 0.498 |
| B6 | > 10 |
| B7 | > 10 |

Target: SARS-CoV-2 Omicron BQ.1.1 spike pseudovirus
Assay: as above
Protocol: as §1

| Binder | pseudovirus neutralization IC50 [µg/mL] |
| --- | --- |
| B1 | > 10 |
| B2 | > 10 |
| B4 | > 10 |
| B5 | 2.61 |
| B6 | > 10 |
| B7 | > 10 |

Target: SARS-CoV-2 Omicron XBB spike pseudovirus
Assay: as above
Protocol: as §1

| Binder | pseudovirus neutralization IC50 [µg/mL] |
| --- | --- |
| B1 | > 10 |
| B2 | 0.966 |
| B4 | > 10 |
| B5 | 2.64 |
| B6 | > 10 |
| B7 | > 10 |

Target: SARS-CoV-2 early D614G spike pseudovirus
Assay: as above
Protocol: as §1

| Binder | pseudovirus neutralization IC50 [µg/mL] |
| --- | --- |
| B1 | > 10 |
| B2 | 0.00284 |
| B3 | 0.0036 |
| B4 | > 10 |
| B5 | 1.3 |
| B6 | > 10 |
| B7 | > 10 |

— the supplement of paper PMC9931576
